Assay results as given in the supplement of paper PMC9931576.
Human monoclonal antibodies against the spike receptor-binding domain (heavy:light variable regions). IC50 against pseudoviruses bearing the spike of naturally observed variants; lower = stronger; >10 µg/ml means not reached at the top dose. No active / inactive call. The stated detection limit is 0.0005 µg/ml; values near or below 0.001 µg/ml lie at the floor of the assay.

How the values were obtained:
Assay in all cases: pseudovirus neutralization IC50; higher = weaker neutralization
[1] = target: SARS-CoV-2 Omicron BA.1 spike pseudovirus
Protocol: (§1)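 Single-round VSV luciferase pseudovirus mixed with antibody dilutions for 1 h and put on Huh-7 cells for about a day; IC50 from the dose curve.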

[2] = target: SARS-CoV-2 Omicron BA.2 spike pseudovirus
Protocol: as §1

[3] = target: SARS-CoV-2 Omicron BA.2.75 spike pseudovirus
Protocol: as §1

[4] = target: SARS-CoV-2 Omicron BA.5 spike pseudovirus
Protocol: as §1

[5] = target: SARS-CoV-2 Omicron BQ.1.1 spike pseudovirus
Protocol: as §1

[6] = target: SARS-CoV-2 Omicron XBB spike pseudovirus
Protocol: as §1

[7] = target: SARS-CoV-2 early D614G spike pseudovirus
Protocol: as §1

Row | Binder | pseudovirus neutralization IC50 [1] [µg/mL] | pseudovirus neutralization IC50 [2] [µg/mL] | pseudovirus neutralization IC50 [3] [µg/mL] | pseudovirus neutralization IC50 [4] [µg/mL] | pseudovirus neutralization IC50 [5] [µg/mL] | pseudovirus neutralization IC50 [6] [µg/mL] | pseudovirus neutralization IC50 [7] [µg/mL]
1 | BD57-0151 (protein) chain 1: EVQVVESGGGLVQPGGSLRLSCAASGFTFSSYDMHWVRQATGKGLEWVSAIGTSGDTYYAGSVKGRFTISRENAKNSLYLQMNTLRAGDTAVYYCARGGISSWYWYFDLWGRGTLVTVSS chain 2: DIPMTQSPSSLSASVGDRVTITCRASQSITTYLNWYQQKPGKAPKLLIYAASSLQSGVPSRFSGSGSGTDFTLTISSLQPEDFATYYCQQGYSMPEVTFGQGTRLEMK | > 10 | > 10 | > 10 | > 10 | > 10 | > 10 | > 10
2 | BD57-0153 (protein) chain 1: EVQLVESGGGLVQPGGSLRLSCAASGFTVSRNFMTWVRQAPGKGLEWVSLIHSGGSTFYADSVKGRFTISRHTSKNTVYLQMSSLRPEDTALYYCARSEWLRGSFDIWGQGTTVTVSS chain 2: NFMLTQPHSVSESPGKTVTISCTGSSGSIASNYVQWYQQRPGSAPTTLIYEDNQRPSGVPDRFSGSIDSSSNSASLTISGLKSEDEADYYCQSYDGNNLKWVFGGGTKLTVL | 0.665 | 0.503 | 0.41 | 0.441 | 1.98 | 2 | 0.104
3 | BD57-0127 (protein) chain 1: EVQLVESGGGLVQPGGSLRLSCAASGFTFSSDDMHWVRQSTGKGLEWVSAIGTAGDTYYVDSVKGRFTISREDAKNSLYLQMNSLRAGDTAVYYCARGRAVYDGSRYYYFFDYWGQGTLVTVSS chain 2: DIQMTQSPSSLSASVGDRVTITCRASQSIARYLNWYQQKPGKAPKLLIYGASSLQSGVPSRFSGSGSGTDFTLTISSLQPEDFATYSCQQSYITTHYTFGQGTKLEIK | > 10 | > 10 | > 10 | > 10 | > 10 | > 10 | > 10
4 | BD57-0161 (protein) chain 1: QVQLVQSGAEVKKPGSSVKVSCKASGGIFSGYGMNWVRQAPGQGLEWMGGIIPIFGAPNYAQKFQGRVTITADESTSTAYIDLSSLRSEDTAVYYCARDPVGSNGNDALDIWGQGTMVTVSS chain 2: SYVLTQPPSVSVAPGKTARLTCGGNNIGSTSVHWYQQKPGQAPVLVISYDSDRPSGIPERFSGSNSGNTATLTISRVEAGDEADYYCQVWDSRSDHRVFGGGTKLTVL | 0.141 | 0.0931 | 0.0796 | 0.0978 | > 10 | 2.25 | 0.102
5 | BD57-0160 (protein) chain 1: QVQLVESGGGVVQPGRSLRLSCEVSGFSFSTYAMHWVRQAPGKGLEWVAVISYAGTHKYYADSVKGRFTISRDNSKNTLYVQMTSLRAEDTAIYYCARDSGDGITGTTGWFDPWGHGTLVTVSA chain 2: SYVLTQPPSVSVAPGQTARVTCEEDNIGSKSVHWYQQKPGQAPVLVVYDDSDRPSGIPARFSGSNSGNTATLTISRVEAGDEADYYCQVWHFSGDPFVFGTGTKVTVL | 4.91 | 5.1 | 3.17 | > 10 | > 10 | > 10 | > 10
6 | BD57-0169 (protein) chain 1: QVQLQESGPGLVKPSQTLSLTCTVSGGSISSGGYYWSWIRQHPGKGLEWIGHIFYSGSTNYNPSLRSRVSISVDTSKSQFSLKLTSVTAADTAVYYCARQSGGDRYCGSVYCHVFDFWGQGTLVTVSS chain 2: SYELTQALSVSVALGQTARITCGGNNIGSYNVQWYQQKPGQAPVLVIHRDYNRPSGIPERFSGSNSGNTATLTISRAQAGDEADYYCQVWDSSAAVFGGGTKLTVL | > 10 | 0.392 | > 10 | 1.09 | > 10 | > 10 | 0.00116
7 | BD57-0134 (protein) chain 1: EVQMVESGGGLIQPGGSLRLSCAASGFTVSSNYMSWVRQAPGKGLEWVSAIYSGGSTFYADSVKGRFTISRDNSKNTLYLQMNSLRTEDTAVYYCVRDAFFVQYTTSDWGQGTLVTVSS chain 2: EIVMTQSPATLSVSPGERATLSCRASQSVGNNLAWYQQKPGQAPRLLIYGASTRASGIPARISGSGSGTEFTLTVSSLQSEDFAVYYCQQYIDWPPRYTFGQGTKLEIK | 0.00641 | 0.00764 | 0.00937 | 0.00422 | 0.0131 | 0.017 | 0.00438
8 | BD57-0137 (protein) chain 1: EAQLVESGGGLVQPGRSLRLSCAASGFAFDDYAFHWVRQAPGKGLEWVSSISWDGNTIDYADSVKGRFTISRDNAKNAVYLQLKSLRLEDSALYYCVKDSRAHYDILAGYAGATPWGRGTRVTVSS chain 2: DIVMTQSPVSLPVIPGEPASISCRSSQSLLHSNGHNYLDWYLQKPGQSPQLLIYMGSNRASGVPDRFSGSGSGTDFTLKISRVEAEDVGIYYCMQGLQTPRTFGQGTKLEIK | > 10 | > 10 | > 10 | > 10 | > 10 | > 10 | 0.151
9 | BD57-0145 (protein) chain 1: QVTLRESGPALVKPTQTLTLTCAFSGFSLYNAGMCVSWIRQPPGRALEWLARIDWDDDEFYSTSLRTRLTISKDTSKNQVVLTVTNMDPGDTATYYCARTAIGGFNWYFDYWGPGTLVTVSS chain 2: QSVLTQPPSVSAAPGQQVTISCSGSSSNIGTHYASWYQQLPGTAPKLLIYDNNKRPSGIPDRFSGSKSGTSATLGITGLQSGDEADYYCAAWDDSVSAGVFGGGTKLTVL | 0.212 | 0.000621 | 0.0585 | 0.000173 | > 10 | > 10 | 0.000412
10 | BD57-0163 (protein) chain 1: QVQLQQSGPGLVQPSQTLSLTCAISGDSVSSTSAAWNWIRQSPSRGLEWLGRTYYRSKWYTDYAVSVKGRIIINPDTSKNQFSLQANSVTPEDTAVYYCTRERGDGFDYWGQGALVTVSS chain 2: EIVMTQSPATLSVSPGERATLSCRASESVSNNLAWYQQKPGQAPRLLIYGASTRATGIPARFSGSGSGTEFTLTISSLQSEDFAVYYCQQYSNWLLFTFGPGTKVDIK | > 10 | > 10 | > 10 | > 10 | > 10 | > 10 | > 10
11 | BD57-0138 (protein) chain 1: QVQLVQSGAELKKPGSSVKVSCKASGGSFRSKSITWVRQAPGQGLEWMGKIIPILGVASYAEKFEGRVTITADKSTGTAYMELTSLRSEDTAMFYCATVRGYSGSGSNDYFDNWGLGTLVTVSS chain 2: QSVLTQPPSVSGAPGQRVTISCTGSNSNIGAGYDIHWYRQLPGTAPKLLISVNTNRPSGVPDRFSGSKSGTSASLAISGLQAEDEADYYCQSYDSSLSESVFGGGTKLTVL | 0.0184 | 0.0299 | 0.0153 | 1.16 | > 10 | 2.84 | 0.107
12 | BD57-0141 (protein) chain 1: EVELVESGGGLVQPGGSLRLSCAAFGFTFSTYWMTWVRQTPGKGLEWVANIKQDGSEKYYVDSVKGRFTISRDNAKNSLYLQMNSLRAEDTAVYYCARELGLLWFGELSSGRGTLVTVSS chain 2: DIQMTQSPSSLSASIGDRVTITCRASQGISNSLAWYQQKPGKAPYVLLYAVSTLESGVPSRFSGSGSGTVYTLTISSLQPEDFATYYCLQYFSTPRTFGQGTKVEIK | > 10 | > 10 | > 10 | > 10 | > 10 | > 10 | 0.0123
